{"source": "patent US10059975B2", "about": "“Methods for the isolation and identification of microorganisms” (bioMerieux, Inc., priority 2008, dated 2018)", "system": "positive blood culture broths containing S. pneumoniae, E. coli and S. aureus", "experiment": "Screening of density cushion compounds: separation of microorganisms from lysed positive blood culture broth", "details": "0.7 mL lysate over 0.5 mL cushion, 2 minutes at approximately 10,000 g"}
{"smiles": "OC[C@H]1O[C@@](CO)(O[C@H]2O[C@H](CO)[C@@H](O)[C@H](O)[C@H]2O)[C@@H](O)[C@@H]1O", "note": "[sucrose]", "values": [{"measurement": "separation results as density cushion (in words)", "value": "Satisfactory"}]}
